# According to PubChem BioAssay AID504753 (Sanford-Burnham Center for Chemical Genomics, 2011):
# The list shows a part of the results, in another mix than the full data. Activity calls are given as the source filed them.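 How the source made its calls: active means inhibition of at least 50% at 20 µM in any single replicate; inactive means the rest.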
# Tested on: glucose-6-phosphate dehydrogenase-6-phosphogluconolactonase (PfGluPho), Plasmodium falciparum 3D7
# Assay: malaria parasite PfGluPho enzyme inhibition – biochemical, fluorescence intensity, single concentration, confirmation (AID 504753);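 further: 0% = DMSO with substrate and 100% = DMSO lacking glucose-6-phosphate substrate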
# Details: recombinant PfGluPho, NADPH-diaphorase-resazurin fluorescence; at 20 µM; stronger effect = higher value
row,Compound,inhibition
1,O=[N+]([O-])c1cc([N+](=O)[O-])c(Nc2ccccn2)c([N+](=O)[O-])c1,active: 78.8%
